Test results as given in PMC10714399, “Open Source Antibiotics: Simple Diarylimidazoles Are Potent against Methicillin-Resistant Staphylococcus aureus” (ACS Infectious Diseases, 2023).

Assays:
[1] = test system: MRC-5SV2 (human lung fibroblast cell line); assay: Toxicity against MRC-5SV2; type: cell-based; settings: ratio TC50 (MRC-5)/MRSA MIC, rounded to the nearest integer
Experimental: (§1) ADME and toxicity for compounds were measured according to procedures outlined in the manuscript submitted in parallel to this one;2 other procedures were used for those compounds analysed by Monash University (in vitro ADME) or UCL (toxicity), both described in the main

[2] = test system: PMM (primary mouse macrophages); assay: Toxicity against PMM; type: cell-based; settings: ratio TC50 (PMM)/MRSA MIC, rounded to the nearest integer
Experimental: as §1

Compound	SI MRC5 [1]	SI PMM [2]
CC(C)CN(c1ccc(F)cc1)c1c(-c2ccccn2)nc2ccccn12 [compound 983]	10	4
COc1ccn2c(Nc3ccccc3F)c(-c3cnn(C)c3)nc2c1 [compound 855]	1	1
CCCN(c1ccc(F)cc1)c1c(-c2ccccn2)nc2ccccn12 [compound 982]	1	0
Cc1ccc2nc(-c3ccccc3)c(CNc3cccc(C(F)(F)F)c3)n2c1 [compound 1028]	1	1
c1ccc(Cn2c(-c3ccccn3)nc3ccccc32)cc1 [compound 993]	1	1
CC(=O)N(c1ccc(F)cc1)c1c(-c2ccccn2)nc2ccccn12 [compound 1021]	1	1
N#Cc1ccc(-c2c(-c3ccccn3)nc3n2CCC3)cc1C(F)(F)F [compound 1077]	1	1
Fc1ccc(-c2c(-c3ccccn3)nc3n2CCC3)cc1 [compound 1053]	0	0
Fc1cccc(-c2c(-c3ccccn3)nc3n2CCC3)c1 [compound 872]	0	0
Cc1ccn2c(CN(CC(C)C)c3cccc(C(F)(F)F)c3)c(-c3ccccn3)nc2c1 [compound 1033]	0	0
CCCCN(Cc1c(-c2ccccc2)nc2ccc(C)cn12)c1cccc(C(F)(F)F)c1 [compound 1029]	0	0
Fc1ccc(-c2c(-c3ccccn3)nc3ccccn23)cc1 [compound 859]	0	0
Fc1cc(-c2c(-c3ccccn3)nc3n2CCC3)ccn1 [compound 1073]	0	0
Fc1ccc(Nc2c(-c3ccccn3)nc3sccn23)cc1 [compound 984]	0	1
N#Cc1ccc(-n2c(-c3ccccn3)nc3ccccc32)cc1 [compound 990]	1	1
c1ccc(-c2nc3ccccc3n2-c2ccc3occc3c2)nc1 [compound 991]	1	1
c1ccc(-n2c(-c3ccccn3)nc3ccccc32)cc1 [compound 992]	1	1
FC(F)(F)c1ccc(-c2c(-c3ccccn3)nc3n2CCC3)cc1 [compound 1052]	0	1
COc1ccn2cc(-c3ccccn3)nc2c1 [compound 856]	0	0
Nc1ccc(-c2c(-c3ccccn3)nc3n2CCC3)cc1 [compound 1074]	0	0

Compound	SI MRC5 [1]	SI PMM [2]
CS(=O)(=O)c1ccc2nc(-c3ccccn3)c(Nc3ccc(F)cc3)n2c1 [compound 1020]	1	0
Cc1ccc2nc(-c3ccccc3)cn2c1 [compound 1026]	0	0
Cc1ccn2cc(-c3ccccn3)nc2c1 [compound 1030]	0	0
NC(=O)c1ccc(-n2c(-c3ccccn3)nc3ccccc32)cc1 [compound 989]	1	1
N#Cc1ccc(-c2c(-c3ccccn3)nc3n2CCC3)cn1 [compound 1075]	1	1
Fc1ccc(Nc2c(-c3ccccn3)nc3ccccn23)cc1 [compound 987]	0	1
N#Cc1ccc(-c2c(-c3ccccn3)nc3n2CCC3)cc1 [compound 975]	2	5
COc1cc(-c2c(-c3ccccn3)nc3n2CCC3)ccc1C#N [compound 1076]	0	1
c1ccc(-c2nc3ccccc3n2-c2ccc(N3CCOCC3)cc2)nc1 [compound 995]	1	1
c1ccc(-c2nc3n(c2-c2ccncc2)CCC3)nc1 [compound 1072]	1	1
c1ccc(-c2nc3ccccc3n2-c2ccc(N3CCCCC3)cc2)nc1 [compound 994]	0	0
Fc1ccc(N(CC2CC2)c2c(-c3ccccn3)nc3ccccn23)cc1 [compound 979]	1	1
N#CCc1ccc(-n2c(-c3ccccn3)nc3ccccc32)cc1 [compound 996]	1	1
COc1ccc2nc(-c3ccccn3)c(N(C)c3ccc(F)cc3)n2c1 [compound 980]	0	1
Clc1ccc(-c2c(-c3ccccn3)nc3n2CCC3)cc1 [compound 875]	0	1
COc1ccn2c(-c3ccc(F)cc3)c(-c3ccccn3)nc2c1 [compound 858]	0	0
Fc1ccc(NCc2c(-c3ccccn3)nc3ccccn23)cc1 [compound 1019]	1	1
CCN(c1ccc(F)cc1)c1c(-c2ccccn2)nc2ccccn12 [compound 981]	1	1
Cc1ccc2nc(-c3ccccc3)c(CNc3ccc(F)cc3)n2c1 [compound 1027]	1	1
COc1ccn2c(-c3ccccc3)c(-c3ccccn3)nc2c1 [compound 860]	0	0
